Anti-infective test results gathered from many reports (values: NIAID ChemDB through PubChem).

Shared fields: tests in culture; agent: HIV-1

ECn is the concentration giving n% inhibition of infection, replication or growth. An empty or dashed field is not shown. Rows are shuffled and stem from different studies.

SMILES,cells,mutations,endpoint,strain or isolate,method,result
C/C=C(/C)C(=O)O[C@@H]1[C@@H](C)[C@@]2(O)C(C=C(CO)C[C@]3(O)C(=O)C(C)=CC23)C2C(C)(C)[C@@]21OC(=O)C(C)CC,MT-4,-,EC50,LAV-1,cytopathic effect / microscopy / visual reading,<31.3 µg/mL
Cc1cccc(C)c1C(=O)N1CCC(N2CCN([C@@H](C)c3ccc(Cc4ccc5c(c4)OCO5)cc3)[C@@H](C)C2)CC1,PBMC,-,EC50,US-1,-,0.008 µM
Nc1cccc(CN2C(=O)N(Cc3cccc(N)c3)[C@H](Cc3ccccc3)[C@H](O)[C@@H](O)[C@H]2Cc2ccccc2)c1,MT-2,-,EC50,RF WT,-,<0.13 µM
Cc1cn([C@H]2C[C@H](N=[N+]=[N-])[C@@H](CO)O2)c(=O)[nH]c1=O,CEM + CEM-SS,-,EC50,RF,cytopathic effect / MTS,0.001 µM
CCCCCCCCCCCCCCCCOCCCOP(=O)(O)COCCn1cnc2c(N)ncnc21,-,-,EC50,-,-,0.0008 µM
OCCc1ccc(O[C@@H]2O[C@H](CO)[C@@H](O)[C@H](O)[C@H]2O)c(O)c1,-,-,EC50,-,-,36.8 µg/mL
CCCCC[C@H](O)/C=C/C1=C(CCCCCCC(=O)O)C(=O)CC1,-,-,EC50,-,syncytia,>40 µM
C[C@@H]1O[C@@H](O[C@@H]2[C@@H](O)[C@H](OCCc3ccc(O)c(O)c3)O[C@H](CO)[C@H]2OC(=O)/C=C/c2ccc(O)c(O)c2)[C@H](O)[C@H](O)[C@H]1O,-,-,EC50,-,-,13.8 µg/mL
CN(C)c1ccnc2sc(C(N)=O)c(N)c12,U1,-,EC50,-,p24 / ELISA,0.659 µM
Cc1ccc(CN2C(=O)N(Cc3ccc(C)cc3)[C@H](Cc3ccccc3)[C@H](O)[C@@H](O)[C@H]2Cc2ccccc2)cc1,MT-2,-,EC50,RF,hybridisation,<4.3 µM
O=C(O)P(=O)(O)O,JM,-,EC50,GBB,p24,4 µg/mL
CCCCCCCCCCCCCC(=O)O[C@@H]1[C@@H](C)[C@@]2(O)[C@@H](C=C(CO)C[C@]3(O)C(=O)C(C)=C[C@@H]23)[C@@H]2C(C)(C)[C@]12OC(C)=O,MT-4,-,EC50,LAV-1,cytopathic effect / microscopy / visual reading,<0.00048 µg/mL
O=c1[nH]cc(F)c(=O)[nH]1,PBMC,-,EC50,ERS104pre,p24,>2 µM
Cc1cn([C@H]2C[C@H](N=[N+]=[N-])[C@@H](COP(=O)(OCC(F)(F)F)OCC(F)(F)F)O2)c(=O)[nH]c1=O,C8166,-,EC50,RF,antigen,0.4 µM
CC(C)OC(=O)OCOP(=O)(CO[C@H](C)Cn1cnc2c(N)ncnc21)OCOC(=O)OC(C)C,TZM-gfp,A114S/M184V/A502V,EC50,NL4-3,GFP,0.03 µM
NC(=O)c1sc2cncc(N3CCC(F)(F)CC3)c2c1N,U1,-,EC50,-,p24 / ELISA,0.219 µM
CCCCCCCCCCCCNC(=O)C1C(=O)N(O)C(=O)c2ccccc21,MT-4,-,EC50,-,MTT,>18.55 µM
O=C(c1ccccc1)c1ccc2c(c1)nc1n2C(c2c(F)cccc2Cl)SC1,MT-4,-,EC50,IIIB,cytopathic effect / MTT,>26.7 µM
O=c1ccn([C@H]2CC[C@@H](CO)O2)c(=O)[nH]1,MOLT-4,-,EC50,NDK,cytopathic effect,10 µg/mL
OCCc1ccc(O)c(O)c1,-,-,EC50,-,-,16.5 µg/mL
CC(=O)N[C@@H](CS)C(=O)O,H9(HIV-1(IIIB)) + H9,-,EC50,IIIB,p24,>2500 µM
Nc1ncnc2c1ncn2[C@H]1C[C@@H](OCP(=O)(O)O)CO1,MT-4,-,EC50,IIIB,MTT,4.69 µM
Cc1ccc(S(=O)(=O)N2CC3(C[C@H]2C(=O)N/N=C/c2ccccc2Cl)SCCS3)cc1,C8166,-,EC50,IIIB,syncytia / visual reading,>404 µM
NC(=O)c1sc2nccc(Nc3ccccc3)c2c1N,U1,-,EC50,-,p24 / ELISA,<0.24 µM
NC(=O)c1[nH]c2ccc(Cl)cc2c1S(=O)(=O)c1ccccc1,MT-4,-,EC50,IIIB,MTT,0.002 µM
COc1ccc(S(=O)(=O)N(CC(C)C)C[C@@H](O)[C@H](Cc2ccccc2)NC(=O)O[C@H]2CO[C@H]3OCC[C@H]32)cc1,H9(HIV-1(IIIB)) + H9,-,EC50,IIIB,p24,0.02 µM
CC(C)=CCN1c2cc(Cl)cc3[nH]c(=S)n(c23)C[C@@H]1C,MT-4,RT-D67N K70R T215Y K219Q L100I,EC95,-,-,0.2 µM
CC(C)(C)NC(=O)[C@@H]1C[C@@H]2CCCC[C@@H]2CN1C[C@@H](O)[C@H](Cc1ccccc1)NC(=O)[C@H](CC(N)=O)NC(=O)c1ccc2ccccc2n1,C8166,-,EC50,RF,p24,<0.001 µg/mL
O=C(O)CCCC#CC#CCCCCCCCCCCCCCc1ccco1,1A2,-,EC50,MC99 deltaTAT/REV,syncytia / β-galactosidase,8.9 µg/mL
Nc1ncnc2c1ncn2[C@H]1CC[C@@H](CO)O1,ATH8,-,EC50,IIIB,cytopathic effect / trypan blue,<100 µM
Cc1cn([C@H]2C[C@H](N=[N+]=[N-])[C@@H](COP(=O)(Oc3ccc([N+](=O)[O-])cc3)Oc3ccc([N+](=O)[O-])cc3)O2)c(=O)[nH]c1=O,JM,-,EC50,GB8,p24,10 µM
COc1ccc(Cc2nccc3cc(OC)c(OC)cc23)cc1OC,JM,-,EC50,GBB,p24,>2 µg/mL
CC(C)[C@H](NC(=O)Cc1ccccn1)C(=O)N[C@@H](Cc1ccccc1)[C@@H](O)[C@H](O)[C@H](Cc1ccccc1)NC(=O)[C@@H](NC(=O)Cc1ccccn1)C(C)C,MT-2,-,EC50,RF,plaque count / virus yield,<1.3 µg/mL
Nc1ccc(CN2C(=O)N(Cc3ccc4[nH]ncc4c3)[C@H](Cc3ccccc3)[C@H](O)[C@@H](O)[C@H]2Cc2ccccc2)cc1-n1cncn1,MT-2,-,EC50,RF WT,-,<0.035 µM
CC(C)[C@H](NC(=O)OCc1ccccc1)C(=O)N[C@@H](Cc1ccccc1)[C@@H](O)[C@H](O)[C@H](Cc1ccccc1)NC(=O)[C@@H](NC(=O)OCc1ccccc1)C(C)C,MT-2,-,EC50,RF,plaque count / virus yield,<0.09 µg/mL
CCCCC/C=C\C/C=C\CCCCCCCC(=O)OCC1=C[C@H]2[C@@H]3C(C)(C)[C@]3(OC(C)=O)[C@H](O)[C@@H](C)[C@]2(O)[C@@H]2C=C(C)C(=O)[C@@]2(O)C1,MT-4,-,EC50,LAV-1,cytopathic effect / microscopy / visual reading,<15.6 µg/mL
O=C1N(Cc2ccncc2)[C@H](Cc2ccccc2)[C@H](O)[C@@H](O)[C@@H](Cc2ccccc2)N1Cc1ccc2ccccc2c1,MT-2,-,EC50,RF,hybridisation,<2.7 µM
Nc1cccc(CN2C(=O)N(Cc3ccc4[nH]ncc4c3)[C@H](Cc3ccccc3)[C@H](O)[C@@H](O)[C@H]2Cc2ccccc2)c1,MT-2,-,EC50,RF WT,-,<0.011 µM
C[C@@H]1O[C@@H](O[C@@H]2[C@@H](O)[C@H](OCCc3ccc(O)c(O)c3)O[C@H](COC(=O)/C=C/c3ccc(O)c(O)c3)[C@H]2O)[C@H](O)[C@H](O)[C@H]1O,-,-,EC50,-,-,5.29 µg/mL
Cc1cn([C@H]2C[C@H](N=[N+]=[N-])[C@@H](COP(=O)(N[C@@H](C)C(=O)OCc3ccccc3)OCC(Cl)(Cl)Cl)O2)c(=O)[nH]c1=O,C8166,-,EC50,IIIB,p24,0.03 µM
C=CCNC(=O)C1C(=O)N(O)C(=O)c2ccccc21,MT-4,-,EC50,-,MTT,>129 µM
Cc1cn([C@H]2C[C@H](N=[N+]=[N-])[C@@H](CO)O2)c(=O)[nH]c1=O,1A2,-,EC50,MC99 deltaTAT/REV,syncytia / β-galactosidase,0.00135 µg/mL
COC(=O)[C@H](C)NP(=O)(OC[C@H]1O[C@@H](N2C(=O)NC(=O)C(C)(Br)C2OC)C[C@@H]1N=[N+]=[N-])Oc1ccc(OC)cc1,PBMC,-,EC50,IIIB,RT activity,0.04 µM
COC(=O)Cc1cccc(CN2C(=O)N(Cc3ccc4[nH]ncc4c3)[C@H](Cc3ccccc3)[C@H](O)[C@@H](O)[C@H]2Cc2ccccc2)c1,MT-2,-,EC50,RF,-,<0.032 µM
CC(C)(C)OC(=O)[C@@H]1CCCN1C[C@H](O)[C@H](Cc1ccccc1)NC(=O)[C@H](CC(N)=O)NC(=O)OCc1ccccc1,C8166,-,EC50,RF,p24,10 µg/mL
O=S(=O)(O)OC1C(OS(=O)(=O)O)C(OS(=O)(=O)O)C(OS(=O)(=O)O)C(OS(=O)(=O)O)C1OS(=O)(=O)O,MT-4,GP120-K320Q,EC50,NL4-3,cytopathic effect / MTT,>250 µg/mL
C=CCN1C(=O)N(CC=C)[C@H](Cc2ccccc2)[C@H](O)[C@@H](O)[C@H]1Cc1ccccc1,MT-2,-,EC50,RF,hybridisation,<4.7 µM
NC(=O)c1cc2c(-c3cnc4ccccc4c3)cncc2s1,U1,-,EC50,-,p24 / ELISA,0.066 µM
O=C(c1ccccc1)c1ccc2c(c1)nc1n2C(c2c(Cl)cccc2Cl)SC1,MT-4,-,EC50,IIIB,cytopathic effect / MTT,>28.3 µM
CCCCCCCCCCCC(=O)O[C@@]12[C@H](OC(=O)C(C)CC)[C@@H](C)[C@@]3(O)[C@@H](C=C(CO)C[C@]4(O)C(=O)C(C)=C[C@@H]34)[C@@H]1C2(C)C,MT-4,-,EC50,LAV-1,cytopathic effect / microscopy / visual reading,<15.76 µg/mL
O=C(O)c1cccc(CN2C(=O)N(Cc3ccc4[nH]ncc4c3)[C@H](Cc3ccccc3)[C@H](O)[C@@H](O)[C@H]2Cc2ccccc2)c1,MT-2,-,EC50,RF,-,<0.75 µM
CCC(CCC(C)C1CCC2C3C[C@@H](O)[C@@]4(O)C[C@@H](O)CCC4(C)C3CCC12C)C(C)C,MT-4,-,EC50,-,cytopathic effect,9.38 µg/mL
O=C(NCCc1ccc(F)cc1)C1C(=O)N(O)C(=O)c2ccccc21,MT-4,-,EC50,-,MTT,9.39 µM
Fc1cccc(F)c1C1SCc2nc3cc(C(F)(F)F)ccc3n21,MT-4,-,EC50,IIIB,cytopathic effect / MTT,>351 µM
CC(C)[C@H](NC(=O)OCc1ccccc1)C(=O)N[C@@H](Cc1ccc(O)cc1)[C@@H](O)[C@H](O)[C@H](Cc1ccc(O)cc1)NC(=O)[C@@H](NC(=O)OCc1ccccc1)C(C)C,MT-2,-,EC90,RF,plaque count / virus yield,0.4 µg/mL
NC(=O)c1cc2c(-c3ccc4c(c3)CCO4)cncc2s1,PBMC,-,EC50,93BR021,p24 / ELISA,0.0488 µM
O=C(Cn1nccn1)c1cccc(CN2C(=O)N(Cc3ccc4[nH]ncc4c3)[C@H](Cc3ccccc3)[C@H](O)[C@@H](O)[C@H]2Cc2ccccc2)c1,MT-2,-,EC50,RF,-,<0.015 µM
COc1cc(/C=C/C(=O)NCCc2ccc(O)cc2)ccc1O,1A2,-,EC50,MC99 deltaTAT/REV,syncytia / β-galactosidase,3.2 µg/mL
Fc1cccc(F)c1C1SCc2nc3ccccc3n21,MT-4,-,EC50,IIIB,cytopathic effect / MTT,0.6 µM
Nc1ccn([C@H]2CC[C@@H](CO)O2)c(=O)n1,C8166,-,EC50,RF,antigen,0.2 µM
O=C1N(Cc2ccccc2)[C@H](Cc2ccccc2)[C@H](O)[C@@H](O)[C@@H](Cc2ccccc2)N1Cc1ccc2ccccc2c1,MT-2,-,EC50,RF,hybridisation,<7.5 µM
O=C1N(Cc2ccc(CO)cc2)[C@H](COc2ccccc2)[C@H](O)[C@@H](O)[C@@H](COc2ccccc2)N1Cc1ccc(CO)cc1,MT-4,PR-I84V,EC50,IIIB,cytopathic effect / XTT,0.95 µM
Nc1ccn([C@H]2CC[C@@H](CO)O2)c(=O)n1,HELA/CD4 + HELA CD4+,-,EC50,HXB2,plaque count,0.3 µM
COc1ccc(-c2cncc3sc(C(N)=O)cc23)cc1,293T,-,EC50,-,p24 / ELISA,0.115 µM
O=C(Cn1cncn1)c1cccc(CN2C(=O)N(Cc3ccc4[nH]ncc4c3)[C@H](Cc3ccccc3)[C@H](O)[C@@H](O)[C@H]2Cc2ccccc2)c1,MT-2,-,EC50,RF,-,<0.051 µM
Nc1nc(=O)n([C@@H]2CS[C@H](CO)O2)cc1F,MT-2,-,EC50,LAI (RT-K65R Q151M) Recombinant,cytopathic effect / XTT,>20 µM
O=C1N(Cc2cccc(CCO)c2)[C@H](Cc2ccccc2)[C@H](O)[C@@H](O)[C@@H](Cc2ccccc2)N1Cc1ccc2[nH]ncc2c1,MT-2,-,EC50,RF,-,<0.017 µM
Cc1cn([C@H]2C[C@H](N=[N+]=[N-])[C@@H](CO)O2)c(=O)[nH]c1=O,MT-4,NNRTI-resistant (RT K103N/Y181C),EC50,-,-,0.002 µM
OC[C@H]1N[C@H](CO)[C@@H](O)[C@@H]1O,JM,-,EC50,GBB,p24,200 µg/mL
NC(=O)c1sc2cncc(N3CCCCC3)c2c1N,293T,-,EC50,-,p24 / ELISA,0.68 µM
O=C1N(Cc2ccccc2Cl)[C@H](Cc2ccccc2)[C@H](O)[C@@H](O)[C@@H](Cc2ccccc2)N1Cc1ccccc1Cl,MT-2,-,EC50,RF,hybridisation,<11.3 µM
CC(C)=CCOc1cc(CCc2cccc(O)c2)cc(O)c1CC=C(C)C,CEM + CEM-SS,-,EC50,RF,cytopathic effect / XTT,2 µg/mL
O=C(O)C1=CC(=C(c2ccc(O)c(C(=O)O)c2)c2ccc(O)c(C(=O)O)c2)C=CC1=O,MOLT-4,-,EC50,NDK,cytopathic effect,38 µg/mL

A second listing of 5 rows from above:

SMILES,cells,mutations,endpoint,strain or isolate,method,result
Cc1cn([C@H]2C[C@H](N=[N+]=[N-])[C@@H](CO)O2)c(=O)[nH]c1=O,1A2,-,EC50,MC99 deltaTAT/REV,syncytia / β-galactosidase,0.00135 µg/mL
CC(C)OC(=O)OCOP(=O)(CO[C@H](C)Cn1cnc2c(N)ncnc21)OCOC(=O)OC(C)C,TZM-gfp,A114S/M184V/A502V,EC50,NL4-3,GFP,0.03 µM
Nc1cccc(CN2C(=O)N(Cc3ccc4[nH]ncc4c3)[C@H](Cc3ccccc3)[C@H](O)[C@@H](O)[C@H]2Cc2ccccc2)c1,MT-2,-,EC50,RF WT,-,<0.011 µM
Cc1cn([C@H]2C[C@H](N=[N+]=[N-])[C@@H](CO)O2)c(=O)[nH]c1=O,MT-4,NNRTI-resistant (RT K103N/Y181C),EC50,-,-,0.002 µM
O=C(Cn1cncn1)c1cccc(CN2C(=O)N(Cc3ccc4[nH]ncc4c3)[C@H](Cc3ccccc3)[C@H](O)[C@@H](O)[C@H]2Cc2ccccc2)c1,MT-2,-,EC50,RF,-,<0.051 µM